Anti-infective test results gathered from many reports (values: NIAID ChemDB through PubChem).

All rows: target-level tests; species: Hepatitis C virus; target: Nonstructural protein 5B

Fold resistance has wild type as its base. Blank or dashed fields: not listed here. ICn: concentration for n% inhibition. Percent inhibition refers to the dose given; in toxicity tests it is the harm to the cells. Two numbers with a dash give a range or band. Rows are shuffled and stem from different studies.

smiles	strain or isolate	mutations	read by	setting	measure	dose	value
O=C(Nc1ccc2[nH]ncc2c1)c1cc(N2CCNCC2)c(F)cc1F					inhibition	1 µg/mL	42%
NC(=O)c1ncn([C@@H]2O[C@H](COC(=O)c3ccc(S(=O)(=O)F)cc3)[C@@H](O)[C@H]2O)n1					IC50		>1000 µM
Nc1nc2c(ncn2[C@@H]2O[C@H](CO)[C@@H]3C[C@@]32F)c(=O)[nH]1			nucleotide incorporation	genotype 1b	IC50		>100 µM
CN1CCN(c2cc(C(=O)Nc3ccc4cn[nH]c4c3)c(F)cc2F)CC1					inhibition	1 µg/mL	23%
O=C(NO)c1sc2ccccc2c1S(=O)(=O)c1ccccc1			scintillation proximity / radiometric	genotype 1b	inhibition	50 µM	<15%
C[C@@]1(O)[C@H](O)[C@@H](COP(=O)(O)OP(=O)(O)OP(=O)(O)O)O[C@H]1c1ccc2c(N)ncnn12	GT3a		nucleotide incorporation		IC50		0.5 µM
O=C(Nc1ccc2cn[nH]c2c1)c1cc(N2CCC(O)CC2)c(F)cc1F					inhibition	0.1 µg/mL	24%
C[C@@]1(O)[C@H](O)[C@@H](COP(=O)(O)OP(=O)(O)OP(=O)(O)O)O[C@H]1c1ccc2c(=O)[nH]c(N)nn12	GT-1b Con1		nucleotide incorporation		IC50		0.21 µM
CCOc1cccc(CCC2(C3CCCC3)CC(=O)CC(=O)O2)c1					IC50		1–10 µM
NC(=O)c1ncn([C@@H]2O[C@H](COC(=O)c3ccc(S(=O)(=O)F)cc3)[C@@H](O)[C@H]2O)n1					IC50		>1000 µM
O=C1OC(CCc2ccc(OCc3ccccc3)cc2)(C2CCCC2)CC(O)=C1Sc1cccc2ccccc12					IC50		1–10 µM
CN1CCN(c2cc(C(=O)Nc3ccc4[nH]ncc4c3)c(F)cc2F)CC1					inhibition	0.1 µg/mL	0%
O=C(OC[C@H]1O[C@@H](n2cnc3c(=O)[nH]cnc32)[C@H](O)[C@@H]1O)c1ccc(S(=O)(=O)F)cc1					IC50		280 µM
CC1=NCCN1c1cc(C(=O)Nc2ccc3[nH]ncc3c2)c(F)cc1F					inhibition	10 µg/mL	55%
O=C1CC(=O)OC(CCc2nccs2)(C2CCCC2)C1					IC50		>50 µM
C[C@@]1(O)[C@H](O)[C@@H](COP(=O)(O)OP(=O)(O)OP(=O)(O)O)O[C@@]1(C#N)c1ccc2c(N)ncnn12	2a JFH-1	M289V	radiometric		fold resistance		1.4
Nc1ncnc2c1ncn2[C@@H]1O[C@H](COC(=O)c2ccc(S(=O)(=O)F)cc2)[C@@H](O)[C@H]1O					IC50		>1000 µM
O=C(Nc1ccc2[nH]ncc2c1)c1cc(C2CCNCCN2)c(F)cc1F					inhibition	10 µg/mL	57%
CC(=O)c1cccc(CCC2(C3CCCC3)CC(=O)CC(=O)O2)c1					IC50		1–10 µM
O=C(Nc1ccc2[nH]ncc2c1)c1cc(N2CCC(O)CC2)c(F)cc1F					inhibition	1 µg/mL	63%
O=C1CC(=O)OC(CCc2ccc3c(c2)OCCO3)(C2CCCC2)C1					IC50		1–10 µM

Repeating the first 2 entries:

| smiles | strain or isolate | mutations | read by | setting | measure | dose | value |
|---|---|---|---|---|---|---|---|
| O=C(Nc1ccc2[nH]ncc2c1)c1cc(N2CCNCC2)c(F)cc1F |  |  |  |  | inhibition | 1 µg/mL | 42% |
| NC(=O)c1ncn([C@@H]2O[C@H](COC(=O)c3ccc(S(=O)(=O)F)cc3)[C@@H](O)[C@H]2O)n1 |  |  |  |  | IC50 |  | >1000 µM |